Measured values from several laboratories, pooled; numbers as filed in NIAID ChemDB.

Common to all: whole-cell or culture tests; agent: Mycobacterium tuberculosis

Conditions beyond the fields shown may differ between rows.

SMILES | cells | strain or isolate | read by | mutations | dose | measure | value
CNC(=O)OCCN(CCOC(=O)NC)C(=O)N1c2ccccc2Sc2ccccc21 | - | H37Rv | BACTEC | - | 12.5 µg/mL | inhibition | 4%
O=C(CCC(F)(F)F)N1CC(C2CCOCC2)C1 | THP-1 | H37Rv | fluorescence | - | - | EC50 | 0.05–0.25 µM
CC(=O)c1ccc(N2CCN(C(=O)c3cccnc3)CC2)cc1 | - | Wild type without biotin | turbidity | - | - | MIC50 | >50 µM
CC1=NN(c2ccccc2)C(=O)C1N=Nc1ccc(S(=O)(=O)Nc2cc(C)nc(C)n2)cc1 | - | H37Rv | BACTEC | - | 12.5 µg/mL | inhibition | 22%
C[C@@H](NC(=O)[C@@H](N)Cc1ccccc1)[C@@H](Cc1ccccc1)B1OC2CC3CC(C3(C)C)[C@@]2(C)O1 | - | H37Rv | - | - | - | MIC | ≤50 µg/mL
COc1cc2c(c3c[n+](C)c4c5cc6c(cc5ccc4c13)OCO6)OCO2 | - | H37Rv | BACTEC | - | - | MIC | <12.5 µg/mL
Nc1nc2ccccc2n1/N=C/c1ccccc1[N+](=O)[O-] | - | H37Rv | BACTEC | - | 12.5 µg/mL | inhibition | 19%
COc1cc2c(ccc3c4cc(OC)c(OC)cc4c[n+](C)c23)cc1O | - | H37Rv | BACTEC | - | - | MIC | >12.5 µg/mL
CC[C@H]1OC(=O)[C@H](C)C(=O)[C@H](C)[C@@H](O[C@@H]2O[C@H](C)C[C@H](N(C)C)[C@H]2O)[C@](C)(OC)C[C@@H](C)C(=O)[C@H](C)[C@H]2N(NCCCc3ccnc4ccccc34)C(=O)O[C@]12C | - | Isolate 900145 | - | - | - | MIC | 10 µg/mL
O=c1[nH]c2ccc(C(F)(F)F)cc2nc1CBr | - | - | - | - | 12.5 µg/mL | inhibition | inactive
O=C(c1cccc(Cl)c1)N1CCN(c2ccc([N+](=O)[O-])cc2)CC1 | - | BioA overexpression strain | turbidity | - | - | MIC90 | >50 µM
Cc1nc2scc(-c3ccco3)c2c(=O)n1NC(=O)C1CC1 | - | CNCTC MY331/88 | - | - | - | MIC | 88 µM
O=C(NCCCCCCNC(=O)C1CCCN1C(=O)OCc1ccccc1)C1CCCN1C(=O)OCc1ccccc1 | - | H37Rv | BACTEC | - | 12.5 µg/mL | inhibition | 22%
CC(=O)c1ccc(N2CCN(C(=O)c3ccc(Cl)c(Cl)c3)CC2)cc1 | - | BioA underexpression strain | turbidity | - | - | MIC90 | 6 µM
CC1(C)Cc2[nH]c3ccccc3c(=O)c2-c2nc3ccccc3c(=O)n21 | - | H37Rv | BACTEC | - | 12.5 µg/mL | inhibition | -36%
CC1(C)C2CC3OB([C@H](Cc4ccccc4)[C@@H](Cc4ccccc4)NC(=O)[C@@H](N)CCCCN)O[C@]3(C)C1C2 | - | H37Rv | agar | - | - | MIC | ≤50 µg/mL
Cn1c2c(c(=O)n(C)c1=O)C(C(=O)O)CC(=O)N2 | - | H37Rv | resazurin | - | - | MIC bound | >6.25 µg/mL
C[C@H](N)C(=O)N[C@@H](CB(O)O)Cc1ccccc1 | - | H37Rv | agar | - | - | MIC | ≤500 µg/mL
CN[C@@H]1[C@H](O[C@H]2[C@H](O[C@H]3[C@H](O)[C@@H](O)[C@H](N=C(N)N)[C@@H](O)[C@@H]3N=C(N)N)O[C@@H](C)[C@]2(O)C=O)O[C@@H](CO)[C@H](O)[C@H]1O | - | Isolate TN6515 | - | - | - | MIC | 0.2 µg/mL
CCC(C)C1NC(=O)C(NC(=O)C(Cc2ccccc2)NC)C(c2ccccc2)Oc2ccc(cc2)C=CNC1=O | - | H37Rv | resazurin | - | 6.25 µg/mL | inhibition | 12%
NNC(=O)c1ccncc1 | - | H37Rv | broth dilution | - | - | MIC | ≤0.2 µM
Cc1cc(-c2cc3c(cc2F)c(=O)c(C(=O)O)cn3C2CC2)cc(C)n1 | - | 1620-6 | - | - | - | MIC | 0.25 µg/mL
COC(=O)c1c(C(=O)OC)c2cc(C(=O)OC(C)C)ccn2c1C(=O)c1ccc(Br)cc1 | - | H37Rv | resazurin | - | - | MIC | 1 µg/mL
O=C(CCC(F)(F)F)N1CC(c2cccc(C(F)(F)F)c2)C1 | THP-1 | H37Rv | fluorescence | - | - | EC50 | <0.05 µM
CC(=O)c1ccc(N2CCN(C(=O)CC(C)C)CC2)cc1 | - | BioA overexpression strain | turbidity | - | - | MIC50 | >50 µM
COc1cc(C2SC(C)C(=O)N2NC(=O)COc2ccc(NC(C)=O)cc2)ccc1O | - | H37Rv | - | - | 12.5 µg/mL | inhibition | 24%
COc1ccc(-c2c(-c3ccccc3)oc3cc4c(c(C)c23)C2CCC3(C)C(=O)CCC3C2CC4)cc1 | - | H37Rv | BACTEC | - | 12.5 µg/mL | inhibition | 43%
CC(=O)c1ccc(N2CCN(C(=O)c3cccc(Cl)c3)CC2)s1 | - | BioA overexpression strain | turbidity | - | - | MIC90 | >50 µM
NNC(=O)c1ccncc1 | - | ATCC35801 | - | - | - | MIC | 0.36 µM
C[n+]1cc2c3c(ccc2c2ccc4cc5c(cc4c21)OCO5)OCO3 | - | H37Rv | BACTEC | - | - | MIC | <12.5 µg/mL
CCC1CN(c2c(F)cc3c(=O)c(C(=O)O)cn(C4CC4)c3c2OC)CCN1 | - | Isolate TN5355 | - | - | - | MIC | 0.2 µg/mL
CO/C(C)=C1/NC(=O)[C@H]([C@@H](C)O)NC(=O)c2csc(n2)-c2cc(O)c(-c3nc(C(=O)NCCCN4CCOCC4)cs3)nc2-c2csc(n2)[C@@H]2COC(=O)c3c4c5c(cccc5n3O)COC(=O)[C@@H](O[C@H]3C[C@](C)(O)[C@H](N(C)C)[C@H](C)O3)[C@@H](OC4)[C@H](NC(=O)c3csc1n3)c1nc(cs1)C(=O)N2 | - | H37Rv | broth dilution | - | - | MIC | ≤2.5 µM
O=c1[nH]c2cc(C(F)(F)F)ccc2nc1C(F)(F)F | - | - | - | - | - | EC50 | >12.5 µg/mL
O=C(O)c1cn(C2CC2)c2cc(N3CCN(Cc4ccc5c(c4)OCO5)CC3)c(F)cc2c1=O | - | ATCC35801 | - | - | - | MIC | 0.19 µM
Cc1nc2scc(-c3ccco3)c2c(=O)n1/N=C/c1ccco1 | - | CNCTC MY331/88 | - | - | - | MIC | 52 µM
CC(C)(C)NC(=O)C1c2ccccc2CCN1c1cc2c(cc1[N+](=O)[O-])c(=O)c(C(=O)O)cn2-c1ccc(F)cc1F | - | ATCC35801 | - | - | - | MIC | 11.37 µM
O=C1CCc2cc(N3CCN(C(=O)c4cccc(Cl)c4)CC3)ccc21 | - | Wild type without biotin | turbidity | - | - | MIC90 | 16 µM
C[n+]1cc2cc3c(cc2c2ccc4cc5c(cc4c21)OCO5)OCO3 | - | H37Rv | BACTEC | - | - | MIC | <12.5 µg/mL
O=C(CCC(F)(F)F)N1CC(c2ccc(C(F)(F)F)nc2)C1 | THP-1 | H37Rv | fluorescence | - | - | EC50 | 0.25–0.5 µM
CO/C(C)=C1/NC(=O)[C@H]([C@@H](C)O)NC(=O)c2csc(n2)-c2cc(O)c(-c3nc(C(=O)NNC(=O)c4cc(-c5ccco5)[nH]n4)cs3)nc2-c2csc(n2)[C@@H]2COC(=O)c3c4c5c(cccc5n3O)COC(=O)[C@@H](O[C@H]3C[C@](C)(O)[C@H](N(C)C)[C@H](C)O3)[C@@H](OC4)[C@H](NC(=O)c3csc1n3)c1nc(cs1)C(=O)N2 | - | Clinical isolate 565 | broth dilution | Multidrug-resistant | - | MIC | >100 µM
O=C1OCc2cc(N3CCN(C(=O)c4cccc(Cl)c4)CC3)ccc21 | - | BioA overexpression strain | turbidity | - | - | MIC50 | >50 µM
O=c1[nH]c2cc([N+](=O)[O-])ccc2nc1CBr | - | - | - | - | - | EC50 | >12.5 µg/mL
CO[C@H]1/C=C/O[C@@]2(C)Oc3c(C)c(O)c4c(O)c(c(/C=N/N5CCN(C6CCCC6)CC5)c(O)c4c3C2=O)NC(=O)/C(C)=C\C=C\[C@H](C)[C@H](O)[C@@H](C)[C@@H](O)[C@@H](C)[C@H](OC(C)=O)[C@@H]1C | - | L213 | - | - | - | MIC | 0.2 µg/mL
Cc1nc2scc(-c3ccco3)c2c(=O)n1/N=C/c1ccc([N+](=O)[O-])cc1 | - | CNCTC MY331/88 | - | - | - | MIC | 7 µM
CC(C)(C)n1cc(C(=O)O)c(=O)c2cc(F)c(N3CCN(Cc4ccc5c(c4)OCO5)CC3)cc21 | - | ATCC35801 | - | - | - | MIC | 0.81 µM
CC1(C)C2CC3OB(C[C@@H](Cc4ccccc4)NC(=O)[C@@H](N)CCCCN)O[C@]3(C)C1C2 | - | H37Rv | - | - | - | MIC | ≤5 µg/mL
N#CCC(=O)N/N=C1\C(=O)N(c2ccc(Cl)cc2)C(=O)C(=O)C1c1nc2ccccc2o1 | - | H37Rv | BACTEC | - | - | MIC bound | >12.5 µg/mL
Cc1nc2scc(-c3ccco3)c2c(=O)n1/N=C/C1CC1 | - | CNCTC MY331/88 | - | - | - | MIC | 67 µM
COc1cc(/C=N/NC(=O)COc2ccc(NC(C)=O)cc2)cc(OC)c1OC | - | H37Rv | - | - | - | EC50 | >12.5 µg/mL
COc1c(N2CCNC(C)C2)c(F)cc2c(=O)c(C(=O)O)cn(C3CC3)c12 | - | ATCC35801 | - | - | - | MIC | 1.04 µM
Cn1c(=O)c2ccccc2c2nc3ccccc3nc21 | - | H37Rv | BACTEC | - | 12.5 µg/mL | inhibition | 0%
CC(=O)Nc1ccc(OCC(=O)NN2C(=O)C(C)SC2c2ccccc2)cc1 | - | H37Rv | - | - | 12.5 µg/mL | inhibition | 0%
O=C1C(=O)c2c(nc3ccccn23)-c2ccccc21 | - | H37Rv | resazurin | - | - | MIC bound | <6.25 µg/mL
O=C(CCC(F)(F)F)N1CC(c2ccc(F)cc2)C1 | THP-1 | H37Rv | fluorescence | - | - | EC50 | <0.05 µM
O=[N+]([O-])c1ccc2nc(-c3ccccn3)[nH]c2c1 | - | H37Rv | resazurin | - | - | MIC bound | >6.25 µg/mL
CC(=O)c1ccc(N2CCN(C(=O)c3cc(Cl)cc(Cl)c3)CC2)cc1 | - | Wild type without biotin | turbidity | - | - | MIC50 | >50 µM
S=C(SCc1nc(-c2ccc(Cl)cc2)no1)N1CCSCC1 | - | H37Rv | BACTEC | - | - | MIC bound | ≤128 µg/mL
CO[C@H]1/C=C/O[C@@]2(C)Oc3c(C)c(O)c4c(O)c(c(/C=N/N5CCN(C6CCCC6)CC5)c(O)c4c3C2=O)NC(=O)/C(C)=C\C=C\[C@H](C)[C@H](O)[C@@H](C)[C@@H](O)[C@@H](C)[C@H](OC(C)=O)[C@@H]1C | - | Isolate 910328 rifampicin-resistant | - | - | - | MIC | >32 µg/mL
CN(C)c1ccc(/C=C/c2cc(N(CCO)CCO)c3ccccc3n2)cc1 | - | H37Rv | resazurin | - | 6.25 µg/mL | inhibition | 11%
COc1cc2c[n+](C)c3c4cc5c(cc4ccc3c2cc1OC)OCO5 | - | H37Rv | BACTEC | - | - | MIC | <12.5 µg/mL
S=C(S)Nc1ccc(Cl)cc1 | - | CS-R | - | - | - | MIC | 12.5 µg/mL
C=C(NC(=O)c1csc(-c2nc3c(cc2O)-c2nc(cs2)C(=O)N[C@@H]([C@@H](C)O)C(=O)N/C(=C(\C)OC)c2nc(cs2)C(=O)N[C@@H]2c4nc(cs4)C(=O)N[C@@H](COC(=O)c4c5c6c(cccc6n4O)COC(=O)[C@@H](O[C@H]4C[C@](C)(O)[C@H](N(C)C)[C@H](C)O4)[C@H]2OC5)c2nc-3cs2)n1)C(N)=O | - | Clinical isolate 8600 | broth dilution | Rifampicin- and isoniazid-resistant | - | MIC | ≤2.5 µM
CCN(CC)CCNc1c(O)cc(C)c2sc3ccccc3c(=O)c12 | - | H37Rv | BACTEC | - | 12.5 µg/mL | inhibition | 6%
CC(=O)Nc1ccc(OCC(=O)N/N=C/c2ccc(Cl)cc2)cc1 | - | H37Rv | - | - | 12.5 µg/mL | inhibition | 29%
C/C(=N\NC(=O)C(N)=O)C(CC(C(=O)Nc1ccccc1C)/C(C)=N/NC(=O)C(N)=O)C(=O)Nc1ccccc1C | - | H37Rv | BACTEC | - | - | MIC bound | >12.5 µg/mL
CC(C)(C)n1cc(C(=O)O)c(=O)c2cc(F)c(N3CCN(C(c4ccccc4)c4ccc(Cl)cc4)CC3)cc21 | - | ATCC35801 | - | - | - | MIC | 1.42 µM
Cc1cc2cc(C3CCNCC3)oc2cc1C | - | H37Rv | BACTEC | - | - | MIC bound | >12.5 µg/mL
COc1cc2c(c[n+](C)c3c4cc5c(cc4ccc23)OCO5)c(OC)c1OC | - | H37Rv | BACTEC | - | - | MIC | >12.5 µg/mL
Cc1nc(Nc2ccc(Cl)cc2)sc1C(=O)Nc1cccc2c(=O)[nH][nH]c(=O)c12 | - | H37Rv | resazurin | - | 6.25 µg/mL | inhibition | 24%
O=C(O)c1cn(-c2ccc(F)cc2F)c2cc(N3CCC(n4c(=O)[nH]c5cc(Cl)ccc54)CC3)c([N+](=O)[O-])cc2c1=O | - | ATCC35801 | - | - | - | MIC | 5.5 µM
CC(NNC(=O)c1ccncc1)c1ccc(Cl)cc1Cl | - | - | BACTEC | - | 0.5 µM | inhibition | 0%
CC(=O)c1ccc(N2CCN(C(=O)c3cncc(Cl)c3)CC2)cc1 | - | BioA underexpression strain | turbidity | - | - | MIC50 | >50 µM

The first 6 rows once more:

SMILES | cells | strain or isolate | read by | mutations | dose | measure | value
CNC(=O)OCCN(CCOC(=O)NC)C(=O)N1c2ccccc2Sc2ccccc21 | - | H37Rv | BACTEC | - | 12.5 µg/mL | inhibition | 4%
O=C(CCC(F)(F)F)N1CC(C2CCOCC2)C1 | THP-1 | H37Rv | fluorescence | - | - | EC50 | 0.05–0.25 µM
CC(=O)c1ccc(N2CCN(C(=O)c3cccnc3)CC2)cc1 | - | Wild type without biotin | turbidity | - | - | MIC50 | >50 µM
CC1=NN(c2ccccc2)C(=O)C1N=Nc1ccc(S(=O)(=O)Nc2cc(C)nc(C)n2)cc1 | - | H37Rv | BACTEC | - | 12.5 µg/mL | inhibition | 22%
C[C@@H](NC(=O)[C@@H](N)Cc1ccccc1)[C@@H](Cc1ccccc1)B1OC2CC3CC(C3(C)C)[C@@]2(C)O1 | - | H37Rv | - | - | - | MIC | ≤50 µg/mL
COc1cc2c(c3c[n+](C)c4c5cc6c(cc5ccc4c13)OCO6)OCO2 | - | H37Rv | BACTEC | - | - | MIC | <12.5 µg/mL

Percent inhibition refers to the dose given; in toxicity tests it is the harm to the cells. MIC50, MIC90 and the like: level of inhibition, or share of isolates inhibited. An empty or dashed field is not shown. MIC bound comes from a single tested concentration. a–b is a range or a potency band. "inactive" is the filed call at that dose; no cut-off is given. ECn is the concentration giving n% inhibition of infection, replication or growth.